# Single amino acid changes in Zika NS2B-NS3 and viral growth

Values reported by Ni et al. 2025 (doi:10.1038/s41467-025-63602-z).

The scanned region of Zika virus MR766 is shown below (positions 1-308): NS2B is 2-131, NS3 begins at position 132.
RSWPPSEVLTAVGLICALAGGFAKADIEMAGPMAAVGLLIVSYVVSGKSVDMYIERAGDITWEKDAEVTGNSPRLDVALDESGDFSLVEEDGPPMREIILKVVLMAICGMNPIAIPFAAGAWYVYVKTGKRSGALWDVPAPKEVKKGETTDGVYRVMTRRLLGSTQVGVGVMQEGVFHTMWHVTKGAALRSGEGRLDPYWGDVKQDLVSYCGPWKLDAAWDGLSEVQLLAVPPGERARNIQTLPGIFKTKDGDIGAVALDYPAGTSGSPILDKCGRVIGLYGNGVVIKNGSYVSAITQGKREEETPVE

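Pools of virus carrying all single amino acid changes were selected for growth in Huh-7.5 cells. The effect is the change in frequency of a mutant, normalised to wild type, as a mean of three replicate libraries (two for positions 207-308). The study looked for pockets that tolerate few changes, as a guide for inhibitor design.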

Values are log2 effects on growth: 0 is wild type, lower means poorer growth. A change reads original residue, position, new residue. The region was split into three libraries (1-103, 104-206, 207-308).

mutation	log2 effect
D217*	-8.03
D217A	-4.53
D217C	-5.88
D217E	-0.76
D217F	-4.03
D217G	-5.69
D217H	-4.07
D217I	-5.79
D217K	-5.82
D217L	-6.68
D217M	-5.08
D217N	-6.00
D217P	-6.69
D217Q	-4.88
D217R	-5.80
D217S	-3.89
D217T	-5.88
D217V	-7.00
D217W	-2.19
D217Y	-6.55
A218*	-8.15
A218C	-3.94
A218D	-5.93
A218E	-6.81
A218F	-6.30
A218G	-3.61
A218H	-3.58
A218I	-6.10
A218K	-6.21
A218L	-7.79
A218M	-6.21
A218N	-6.59
A218P	-7.11
A218Q	-4.65
A218R	-4.86
A218S	-1.94
A218T	-1.71
A218V	-3.64
A218W	-5.95
A218Y	-4.75
A219*	-7.76
A219C	1.10
A219D	-1.29
A219E	0.91
A219F	0.28
A219G	-3.73
A219H	0.51
A219I	1.59
A219K	0.89
A219L	1.37
A219M	1.64
A219N	1.02
A219P	-7.32
A219Q	1.55
A219R	1.19
A219S	-0.15
A219T	0.89
A219V	1.34
A219W	0.16
A219Y	-0.71
W220*	-8.10
W220A	-6.48
W220C	-6.78
W220D	-6.28
W220E	-5.07
W220F	-6.23
W220G	-7.26
W220H	-6.19
W220I	-6.09
W220K	-6.47
W220L	-8.00
W220M	-6.21
W220N	-6.54
W220P	-6.63
W220Q	-5.95
W220R	-6.95
W220S	-7.54
W220T	-7.19
W220V	-6.95
W220Y	-3.26

A selection of 3 entries from above:

mutation	log2 effect
A219G	-3.73
W220A	-6.48
W220E	-5.07

Stop codons (*) centre on -7 and mark the level of dead virus. The authors count -1 or higher as tolerated. Position 1 is the last residue of NS2A. Six mutants with high scores were retested singly and none clearly outgrew wild type, so positive values are not proof of better growth.